Compound potency records, mixed from different reports. Data source: NIAID ChemDB in PubChem.

All rows: whole-cell or culture tests; agent: HIV-1; cells: CEM; read by: syncytia; endpoint: fold resistance

Blank or dashed fields: not listed here. Neighbouring rows are from separate reports. Fold resistance has wild type as its base.

{"SMILES": "C=C(Cl)COc1cc(NC(=S)c2ccsc2C)ccc1C#N", "strain": "TSAO-m3T-resistant (RT E138K)", "mutations": "RT-E138K", "result": "4.33"}
{"SMILES": "Cc1occc1C(=S)Nc1ccc(Cl)c(/C=N/OC(C)(C)C)c1", "strain": "IIIB", "mutations": "RT-K103N", "result": "8"}
{"SMILES": "COc1ccc(NC(=S)c2ccoc2C)cc1OCC=C(Cl)Cl", "strain": "Nevirapine-resistant isolate (RT V106A)", "mutations": "RT-V106A", "result": "6.42"}
{"SMILES": "CC(C)(C)OC(=O)c1cc(NC(=S)OC(C)(C)C)ccc1Cl", "mutations": "RT-Y181C", "result": ">15.4"}
{"SMILES": "CC1=C(C(=O)Nc2cc(Cl)cc(C(=O)OC(C)C)c2)SCCO1", "strain": "PYR-resistant (RT Y181C)", "mutations": "RT-Y181C", "result": "1.1"}
{"SMILES": "CCOCn1c(Cc2ccccc2)c(C(C)C)c(=O)[nH]c1=O", "strain": "IIIB TIBO R82913-resistant (RT K103N)", "mutations": "RT-K103N", "result": "650"}
{"SMILES": "COc1ccc(NC(=S)C2=C(C)OCCS2)cc1OCC=C(Cl)Cl", "strain": "TSAO-m3T-resistant (RT E138K)", "mutations": "RT-E138K", "result": "13"}
{"SMILES": "CC[C@H](C)OC(=S)Nc1ccc(Cl)c(C(=O)OC(C)C)c1", "mutations": "RT-Y181C", "result": "21.7"}
{"SMILES": "CC(C)OC(=O)c1cc(NC(=S)OC(C)C)ccc1Cl", "strain": "IIIB", "mutations": "RT-V106A", "result": "71"}
{"SMILES": "CCc1c(Sc2cc(C)cc(C)c2)n(COCCO)c(=S)[nH]c1=O", "strain": "IIIB", "mutations": "RT-Y181I", "result": "250"}
{"SMILES": "Cc1occc1C(=O)Nc1ccc(Cl)c(/C=N/N2CCCC2)c1", "strain": "R82150-resistant (RT L100I)", "mutations": "RT-L100I", "result": "<6.15"}
{"SMILES": "CC(C)OC(=S)Nc1ccc(Cl)c(C(=O)OCc2ccccc2)c1", "mutations": "RT-L100I", "result": "15.7"}
{"SMILES": "COCCOC(=O)c1cc(NC(=O)C2=C(C)OCCS2)ccc1Cl", "strain": "TSAO-resistant (RT E138K)", "mutations": "RT-E138K", "result": ">16.7"}
{"SMILES": "CN1CCN(C(=O)c2ccc3c(=O)c4ccccc4[nH]c3c2)CC1", "mutations": "RT-V106A", "result": "92.2"}
{"SMILES": "CCc1c(Sc2cc(C)cc(C)c2)n(COCCO)c(=O)[nH]c1=O", "strain": "IIIB (TIBO 82150) (RT-L100I)", "mutations": "RT-L100I", "result": "6.67"}
{"SMILES": "CCOC(=O)COc1cc(NC(=S)OC(C)C)ccc1Cl", "mutations": "RT-V106A", "result": "5.13"}
{"SMILES": "CCOCn1c(Sc2ccccc2)c(C(C)C)c(=O)[nH]c1=O", "strain": "IIIB TIBO R82913-resistant (RT K103N)", "mutations": "RT-K103N", "result": "200"}
{"SMILES": "Cc1sccc1C(=O)Nc1ccc(Cl)c(OCC=C(Cl)Cl)c1", "strain": "TIBO R82150-resistant (RT L100I)", "mutations": "RT-L100I", "result": "5.89"}
{"SMILES": "Cc1occc1C(=S)Nc1ccc(Cl)c(/C=N/OC(C)(C)C)c1", "strain": "IIIB", "mutations": "RT-V179D", "result": "3.3"}
{"SMILES": "COc1ccc(NC(=O)C2=C(C)OCCS2)cc1OCC=C(Cl)Cl", "strain": "Pyridone-resistant (RT Y181C)", "mutations": "RT-Y181C", "result": "2.5"}
{"SMILES": "CC(C)O/N=C/c1cc(NC(=S)OC(C)C)ccc1Cl", "mutations": "RT-E138K", "result": "7"}
{"SMILES": "CC1=C(C(=O)Nc2ccc(Cl)c(C(=O)OCC3CCC3)c2)SCCO1", "strain": "PYR-resistant (RT Y181C)", "mutations": "RT-Y181C", "result": "4.71"}
{"SMILES": "CC1=C(C(=O)Nc2ccc(Cl)c(OCC=C(Cl)Cl)c2)SCCO1", "strain": "Nevirapine-resistant isolate (RT V106A)", "mutations": "RT-V106A", "result": "1.67"}
{"SMILES": "CC1=C(C(=O)Nc2ccc(Cl)c(C(=O)OC(C)C)c2)SCCO1", "strain": "IIIB", "mutations": "RT-L100I", "result": ">2700"}
{"SMILES": "CCCCOC(=O)c1cc(NC(=S)OC(C)C)ccc1Cl", "mutations": "RT-E138K", "result": "13.7"}
{"SMILES": "Cc1occc1C(=S)Nc1ccc(Cl)c(SCC=C(Cl)Cl)c1", "strain": "TIBO R82150-resistant (RT L100I)", "mutations": "RT-L100I", "result": "4.6"}
{"SMILES": "CCCOC(=S)Nc1ccc(Cl)c(C(=O)OC(C)C)c1", "mutations": "RT-Y181C", "result": "110"}
{"SMILES": "COC(=O)c1cc(NC(=O)C2=C(C)OCCS2)ccc1Cl", "strain": "Nevirapine-resistant (RT V106A)", "mutations": "RT-V106A", "result": ">2.5"}
{"SMILES": "COCCOC(=S)Nc1ccc(Cl)c(C(=O)OC(C)C)c1", "mutations": "RT-V106A", "result": "36.8"}
{"SMILES": "Cc1sccc1C(=S)Nc1ccc(Cl)c(OCC=C(Cl)Cl)c1", "strain": "Pyridone-resistant (RT Y181C)", "mutations": "RT-Y181C", "result": "32.9"}
{"SMILES": "Cc1ccccc1OC(=O)c1cc(NC(=S)OC(C)C)ccc1Cl", "mutations": "RT-Y181C", "result": "≥25"}
{"SMILES": "C=C(Cl)COc1cc(NC(=S)c2ccoc2C)ccc1C", "strain": "Nevirapine-resistant isolate (RT V106A)", "mutations": "RT-V106A", "result": "7.44"}
{"SMILES": "CCc1c(Sc2ccccc2)n(COCc2ccccc2)c(=O)[nH]c1=O", "strain": "IIIB", "mutations": "RT-Y181I", "result": "175"}
{"SMILES": "C=CCSc1cc(NC(=S)OC(C)C)ccc1Cl", "mutations": "RT-L100I", "result": "17.6"}

Repeating the first 5 entries:

SMILES | strain | mutations | result
C=C(Cl)COc1cc(NC(=S)c2ccsc2C)ccc1C#N | TSAO-m3T-resistant (RT E138K) | RT-E138K | 4.33
Cc1occc1C(=S)Nc1ccc(Cl)c(/C=N/OC(C)(C)C)c1 | IIIB | RT-K103N | 8
COc1ccc(NC(=S)c2ccoc2C)cc1OCC=C(Cl)Cl | Nevirapine-resistant isolate (RT V106A) | RT-V106A | 6.42
CC(C)(C)OC(=O)c1cc(NC(=S)OC(C)(C)C)ccc1Cl |  | RT-Y181C | >15.4
CC1=C(C(=O)Nc2cc(Cl)cc(C(=O)OC(C)C)c2)SCCO1 | PYR-resistant (RT Y181C) | RT-Y181C | 1.1